Results taken from US8535672B2, “Broad-spectrum in-vivo effective superantigen toxin antagonists based on the interaction between CD28 and the superantigen and uses thereof” (Yissum Research Development of the Hebrew University of …, priority 2003, dated 2013).
Where two headings read alike, the source gives them in different places.

Experiments:
[1] = target: T1, soluble CD28 (sCD28) (Homo sapiens, UniProt P10747); type: binding
T1 construct: comprise the extracellular 37-162, 19-152, 21-141, 24-167 and 20-239 amino acid, respectively, of the mature human ligands domain; purchased R&D Systems 342-CD; host or cells: mouse myeloma NS0 cells

[2] = test system: IL2 and IFN-γ mRNA induced by SEB in human PBMC; type: cell-based
[3] = test system: IL2 and IFN-γ mRNA in human PBMC; type: cell-based
[4] = test system: IL10 and IL4 induced by SEB in human PBMC; type: cell-based

B1: sB7-2: soluble recombinant B7-2 extracellular domain fused to His6-tagged Fc region of human IgG (R&D Systems 141-B2) (protein)
chain: LSGAAPLKIQAYFNETADLPCQFANSQNQSLSELVVFWQDQENLVLNEVYLGKEKFDSVHSKYMGRTSFDSDSWTLRLHNLQIKDKGLYQCIIHHKKPTGMIRIHQMNSELSVLANFSQPEIVPISNITENVYINLTCSSIHGYPEPKKMSVLLRTKNSTIEYDGVMQKSQDNVTELYDVSISLSVSFPDVTSNMTIFCILETDKTRLLSSPFSIELEDP
modifications: left off: a dimerising Fc or GST; small tags and cut ends
- Kd ([1]; read-out: KD (Kd) for binding to immobilized sCD28): 19 nM
- Kd ([1]; read-out: Kd for binding of sB7-2 to immobilized sCD28): 19 nM
- antagonism of SEB-mediated induction of IL2 and IFN-γ mRNA [2]: strongly inhibited
- induction of Th1 cytokine mRNA by the substance alone (agonist activity) [3]: vigorous induction
- effect on SEB-mediated induction of IL10 / IL4 (Th2 response) [4]: inhibited neither by sCD28 nor by sB7-2
